{"source": "paper PMC7864994", "about": "“Structure and binding properties of Pangolin-CoV spike glycoprotein inform the evolution of SARS-CoV-2” (2021)", "target": "Pangolin-CoV S ectodomain (Pangolin coronavirus MP789 isolate spike) (Pangolin coronavirus MP789 isolate (from Malayan pangolin, Manis javanica))", "experiment": "BLI", "note": "“And” between values parts separate entries of the source, which are not always exact repeats. Equal values may be shown once.", "data": [{"substance": "pangolin ACE2 ectodomain (Malayan pangolin, Manis javanica) (receptor)", "values": [{"measurement": "Kd", "value": "850 nM and 663 nM"}]}]}
